Data reported in paper PMC8279406 (Journal of Medicinal Chemistry, 2021).

Experiment: general procedure: Fmoc solid-phase peptide synthesis; Rink Amide AM-PS resin (0.55 mmol/g); HBTU/HOBt/DIPEA; PyAOP/HOAt/DIPEA for cyclization
Settings: whole synthesis, side-chain lactam ring; for crude yield: scale of the general procedure 136 mg, 0.75 mmol

[(NMe)Arg-Gly-Asp-Chg-Glu]CONH2 gave a crude yield of 42% and a crude mass of 23 mg.
[Arg-(NMe)Gly-Asp-Chg-Glu]CONH2 gave a crude yield of 65% and a crude mass of 35 mg.
[Arg-Gly-(NMe)Asp-Chg-Glu]CONH2 showed a crude yield of 51% and a crude mass of 28 mg.
Substance [Arg-Gly-Asp-(NMe)Chg-Glu]CONH2 has a crude yield of 53% and a crude mass of 29 mg.
[Arg-Gly-Asp-Chg-(NMe)Glu]CONH2 gave a crude yield of 49% and a crude mass of 28 mg.
